Data: ChEMBL document CHEMBL4342517, “Design, Synthesis, and Mechanism Study of Benzenesulfonamide-Containing Phenylalanine Derivatives as Novel HIV-1 Capsid Inhibitors with Improved Antiviral Activities” (J Med Chem, 2020)

Experiments:
[1] = in vitro; details: human, liver microsomes
[2] = in vitro; details: human, liver microsomes; remark: listed apart in the source

Q: What does the source list for `O=C(O)Cc1ccccc1Nc1c(Cl)cccc1Cl` [DICLOFENAC]?
A: remaining at 1 h [1]: 5.9%; remaining at 1 h [2]: 94.8%
